Assay results reported in patent US20020028807A1, “Non-nucleoside reverse transcriptase inhibitors” (priority 2000, published 2002).

Assays:
HIV-1 RT wild-type (WT) = HIV-1 RT wild-type (WT) (Human immunodeficiency virus type 1 group M subtype B, UniProt P03366); test: Reverse transcriptase (RT) assay, wild-type enzyme; format: biochemical; details: read-out: IC50 WT RT
Description: (§1) Among the enzymes for which Human Immunodeficiency Virus (HIV-1) encodes is a reverse transcriptase (1), so-named because it transcribes a DNA copy from an RNA template. This activity can be quantitatively measured in a cell-free enzyme assay and is based upon the observation that reverse transcriptase is able to use a synthetic template poly r(C) primed with a biotinylated oligo d(G) to transcribe a radio-labelled DNA strand utilising 3H-dGTP as a substrate. The assay described below utilises the wild-type enzyme (which is the predominant form of the enzyme observed in patients infected with HIV-1) and can also be used with mutant RT enzymes (for example, Y181C, prepared by site-directed mutagenesis in which the tyrosine residue at codon 181 has been replaced by a cysteine residue) in analogous assay conditions. This assay allows compounds to be evaluated for their effectiveness at inhibiting the mutant enzymes.
(§2) Some HIV-1 IIIB clone BH10 RT mutants were provided by Dr. C.-K. Shih (Boehringer Ingelheim Pharmaceutials Inc., U.S.A.) in the vector pKK233-2 (Pharmacia). Briefly an HIV RT clone pKRT2 containing only the RT p66 gene regulated by the lac operon/trc promoter was obtained from Dr. W. Summers (Yale University) (2). A variety of specific amino acid substitutions were introduced into the wild-type RT gene by site-directed mutagenesis. RT clones were subcloned into the pKK233-2 bacterial expression vector. Clones provided included wild-type, Val106Ala, Tyr181Cys, Tyr188Cys, Tyr188Leu, Gly190Ala and Pro236Leu. Others were made in-house by site-directed mutagenesis of the pKK233-2 RT clones including Lys103Asn, Lys103Asn/Tyr181Cys, Lys103Asn/Leu100Ile, Lys103Asn/Pro225His, and Lys103Asn/Val108Ile.
(§3) Purification of recombinant reverse transcriptase was performed using a combination of methods previously described (3). A single colony from a fresh plate of transformed JM109 cells was used to initiate growth of a pre-culture grown o/n at 37° C. Two liters of growth medium were inoculated with this pre-culture. […]

HIV-1 RT V106A = HIV-1 RT V106A (Human immunodeficiency virus type 1 group M subtype B, UniProt P03366, V705A); test: Reverse transcriptase (RT) assay, V106A mutant; format: biochemical; details: read-out: IC50 V106A
Description: as §1, §2, §3

HIV-1 RT Y188L = HIV-1 RT Y188L (Human immunodeficiency virus type 1 group M subtype B, UniProt P03366, Y787L); test: Reverse transcriptase (RT) assay, Y188L mutant; format: biochemical; details: read-out: IC50 Y188L
Description: as §1, §2, §3

HIV-1 RT K103N/Y181C = HIV-1 RT K103N/Y181C (Human immunodeficiency virus type 1 group M subtype B, UniProt P03366, K702N/Y780C); test: Reverse transcriptase (RT) assay, K103N/Y181C mutant; format: biochemical; details: read-out: IC50 K103N/Y181C; RT double mutant K103N/Y181C
Description: as §1, §2, §3

[1] = system: HIV coding for wild-type reverse transcriptase (WT RT); test: ELISA (p24) assay of HIV replication in C8166 cell culture, wild-type RT virus; format: cell-based, HIV-1; details: read-out: EC50 WT RT, C8166 cells, extracellular p24, three days
Description: (§4) Compounds of the invention were tested for their ability to inhibit HIV replication in cell culture in a 96-well plate assay. Complete RPMI 1640, consisting of RPMI 1640+10% fetal bovine serum, 10 μg/ml gentamycin and 10 μM β-mercaptoethanol was used for dilution of the compound as well as cell growth medium. The T lymphocyte cell line C8166 was infected at a multiplicity of infection of 0.001 with viruses coding for wild-type and mutant reverse transcriptase. Cells were then incubated for three days in the presence of serial dilutions of the compounds of the invention. The supernatant was pooled from eight replica wells and the concentration of extracellular p24 was determined using a commercially available HIV-1 p24 antigen assay kit (Beckman-Coulter®). The level of inhibition (% inhibition) was calculated with the following equation: [formula]

[2] = system: HIV coding for mutant reverse transcriptase Y181C; test: ELISA (p24) assay of HIV replication in C8166 cell culture, Y181C virus; format: cell-based, HIV-1; details: read-out: EC50 Y181C, C8166 cells, extracellular p24, three days
Description: as §4

[3] = system: HIV coding for mutant reverse transcriptase V106A; test: ELISA (p24) assay of HIV replication in C8166 cell culture, V106A virus; format: cell-based, HIV-1; details: read-out: EC50 V106A, C8166 cells, extracellular p24, three days
Description: as §4

[4] = system: HIV coding for mutant reverse transcriptase Y188L; test: ELISA (p24) assay of HIV replication in C8166 cell culture, Y188L virus; format: cell-based, HIV-1; details: read-out: EC50 Y188L, C8166 cells, extracellular p24, three days
Description: as §4

HIV-1 RT K103N = HIV-1 RT K103N (Human immunodeficiency virus type 1 group M subtype B, UniProt P03366, K702N); test: Reverse transcriptase (RT) assay, K103N mutant; format: biochemical; details: read-out: IC50 K103N
Description: as §1
(§5) Some HIV-1 IIIB clone BH10 RT mutants were provided by Dr. C.-K. Shih (Boehringer Ingelheim Pharmaceutials Inc., U.S.A.) in the vector pKK233-2 (Pharmacia). Briefly an HIV RT clone pKRT2 containing only the RT p66 gene regulated by the lac operon/trc promoter was obtained from Dr. W. Summers (Yale University) (2). A variety of specific amino acid substitutions were introduced into the wild-type RT gene by site-directed mutagenesis. […]

HIV-1 RT Y181C = HIV-1 RT Y181C (Human immunodeficiency virus type 1 group M subtype B, UniProt P03366, Y780C); test: Reverse transcriptase (RT) assay, Y181C mutant; format: biochemical; details: read-out: IC50 Y181C
Description: as §1, §5

HIV-1 RT K103N/P225H = HIV-1 RT K103N/P225H (Human immunodeficiency virus type 1 group M subtype B, UniProt P03366, K702N/P824H); test: Reverse transcriptase (RT) assay, K103N/P225H mutant; format: biochemical; details: read-out: IC50 K103N/P225H; RT double mutant K103N/P225H
Description: as §1, §5

HIV-1 RT Y188C = HIV-1 RT Y188C (Human immunodeficiency virus type 1 group M subtype B, UniProt P03366, Y787C); test: Reverse transcriptase (RT) assay, Y188C mutant; format: biochemical; details: read-out: IC50 Y188C
Description: as §1, §5

HIV-1 RT K103N/V108I = HIV-1 RT K103N/V108I (Human immunodeficiency virus type 1 group M subtype B, UniProt P03366, K702N/V707I); test: Reverse transcriptase (RT) assay, K103N/V108I mutant; format: biochemical; details: read-out: IC50 K103N/V108I; RT double mutant K103N/V108I
Description: as §1, §5

[5] = system: HIV coding for mutant reverse transcriptase K103N/Y181C; test: ELISA (p24) assay of HIV replication in C8166 cell culture, K103N/Y181C virus; format: cell-based, HIV-1; details: read-out: EC50 K103N/Y181C, C8166 cells, extracellular p24, three days
Description: as §4

HIV-1 RT K103N/L100I = HIV-1 RT K103N/L100I (Human immunodeficiency virus type 1 group M subtype B, UniProt P03366, K702N/L699I); test: Reverse transcriptase (RT) assay, K103N/L100I mutant; format: biochemical; details: read-out: IC50 K103N/L100I; RT double mutant K103N/L100I
Description: as §1, §5

SMILES | IC50 (HIV-1 RT wild-type (WT)) [nM] | IC50 (HIV-1 RT V106A) [nM] | IC50 (HIV-1 RT Y188L) [nM] | IC50 (HIV-1 RT K103N/Y181C) [nM] | EC50 [1] [nM] | EC50 [2] [nM] | EC50 [3] [nM] | EC50 [4] [nM] | IC50 (HIV-1 RT K103N) [nM] | IC50 (HIV-1 RT Y181C) [nM] | IC50 (HIV-1 RT K103N/P225H) [nM] | IC50 (HIV-1 RT Y188C) [nM] | IC50 (HIV-1 RT K103N/V108I) [nM] | EC50 [5] [nM] | IC50 (HIV-1 RT K103N/L100I) [nM]
CCN1c2ncc(CCOc3cc[n+]([O-])c4ccccc34)cc2C(=O)N(C)c2ccc(C(F)(F)F)nc21 | 35 | 893 | 578 | 84 | 1.6 | 83 | 65 | 3.5 | – | – | – | – | – | – | –
CCN1c2ncc(CCOc3cccc4c3ccc[n+]4[O-])cc2C(=O)N(C)c2ccc(Cl)nc21 | 10 | 661 | 439 | 51 | 0.4 | – | – | – | 36 | 22 | 17 | 64 | 44 | 11 | –
CCN1c2ncc(CCOc3cccc4c3ccc[n+]4[O-])cc2C(=O)Nc2c(C)cc(Cl)nc21 | 7 | 89 | 3940 | 91 | 0.37 | – | – | – | 25 | 20 | 16 | – | 56 | 22 | 27
